Laboratory results published in the CheMixHub viscosity set.

Settings: 101.3 kPa

CCCC[N+]1(C)CCCC1.O=S(=O)(F)[N-]S(=O)(=O)F
Settings | viscosity [mPa·s]
293.15 K | 107
298.15 K | 86
303.15 K | 70.2
308.15 K | 58
313.15 K | 48.6
318.15 K | 41.2
323.15 K | 35.2
